Measured data: PubChem BioAssay AID504761 (Drosophila RNAi Screening Center, 2011)
Test: 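Insect host genes that dengue virus relies on to spread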 (primary screen). Cell system: D.Mel-2 cells from Drosophila. Reagents: long dsRNA against Drosophila genes. Treatment: infection with dengue virus type 2; dose and infection time not stated. Read-out: 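Cells stained for dengue envelope protein and imaged; percent of infected cells per well on duplicate plates, ranked by infection, with stained nuclei counted for cell number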. Reading the numbers: infection score: higher = more virus-infected cells. Rule for the call: 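Very low infection ranking in both replicate wells (chance probability at most 0.065), then a retest showing infection dropped 1.5-fold or more at p below 0.05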. Calls: active = confirmed: knock-down lowers infection; inactive = not picked or not confirmed.
The deposit covers about 22,000 reagents; below is an unselected part of those that have a named target and a result. Of all reagents, 116 (0.52%) are marked active. 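Calls depend on retest data that are not deposited; infection was ranked per plate without normalising between plates; the unit of the infection score is not given.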 A number with no mark means an inactive call. A plus sign joins genes that one reagent is predicted to hit. Further read-outs or replicates are left out here. No sequences are given here. The record does not give: the amount of reagent, the time to read-out.

infection score, replicate 1, by gene and reagent
Cbl: DRSC10764 1.26; DRSC11111 2.55; DRSC28169 9.53
Srg2 + CG42826: DRSC10681 10.9; DRSC10682 5.06; DRSC24667 9.28
CG33191 + Pif1B: DRSC12706 5.58
CG10877: DRSC14274 1.93
CG5776: DRSC02891 23.2
CG30050: DRSC05342 3.61
CG8584: DRSC07217 10.5
Tgt: DRSC00672 1.75
zen2: DRSC12633 1.79; DRSC27908 17.1
Arf4: DRSC17195 5.98; DRSC29296 10.4
frm: DRSC09753 2.89; DRSC25370 8.42
Cdep: DRSC12028 1.31; DRSC12220 14.5; DRSC12291 0.42
Nup75: DRSC06947 12.2; DRSC28056 28.8
CG10513: DRSC14248 1.88
Ncoa6: DRSC23060 1.43; DRSC25819 9.27
Gr36c: DRSC02437 2.92; DRSC26305 8.1
VAChT: DRSC13311 6.68; DRSC16608 2.44; DRSC23986 2.41
CG42553: DRSC08356 1.01
HmgD: DRSC04619 31.9; DRSC26171 5.65
CG11594: DRSC08207 10.5
CG13293: DRSC09967 2.08
Gr10b: DRSC19477 6.93; DRSC28702 20.9
CG14903: DRSC15024 6.07
